{"source": "PubChem BioAssay AID1259414 (Drosophila RNAi Screening Center, 2018)", "assay": "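Host factors increasing or decreasing Wolbachia levels in cultured fly cells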 (primary screen)", "cell system": "Drosophila JW18 cells infected with Wolbachia", "knock-down reagent": "long dsRNA against Drosophila genes, 0.25 µg dsRNA per well of a 384-well plate", "duration": "5 days", "conditions": "cells persistently infected with Wolbachia before knock-down; no added drug", "read-out": "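Automated imaging of bacterial rRNA staining divided by host cell count, reported as plate-normalised robust z-score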", "direction": "Wolbachia per cell robust z: higher = more Wolbachia per host cell than the plate typical", "rule for the call": "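Active if absolute robust z reaches 1.5 in two or more of three replicates, leaving out multi- or no-target dsRNAs, genes unexpressed in JW18 and A1 wells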", "note": "The screen tested about 24,000 reagents; shown is an unselected part of those with a known target gene and a result. Of all reagents, about 1,210 (5%) got an active call. 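Inactive calls also include excluded dsRNAs with several or no targets, genes unexpressed in JW18, and well A1, regardless of score.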 Names joined by + are all predicted targets of the reagent."}
{"gene": "CG42613", "amplicon": "DRSC13332", "Wolbachia per cell robust z, rep 1": -1.34, "Wolbachia per cell robust z, rep 2": -0.108, "Wolbachia per cell robust z, rep 3": -2.82, "activity call": "inactive"}
{"gene": "CG42613", "amplicon": "DRSC14769", "Wolbachia per cell robust z, rep 1": -4.44, "Wolbachia per cell robust z, rep 2": 0.538, "Wolbachia per cell robust z, rep 3": -0.0511, "activity call": "inactive"}
{"gene": "CG42613", "amplicon": "DRSC15802", "Wolbachia per cell robust z, rep 1": 0.229, "Wolbachia per cell robust z, rep 2": -0.414, "Wolbachia per cell robust z, rep 3": -0.134, "activity call": "inactive"}
{"gene": "CG42613", "amplicon": "DRSC22613", "Wolbachia per cell robust z, rep 1": 0.889, "Wolbachia per cell robust z, rep 2": 0.661, "Wolbachia per cell robust z, rep 3": 1.71, "activity call": "inactive"}
{"gene": "CG42613", "amplicon": "DRSC25089", "Wolbachia per cell robust z, rep 1": -1.99, "Wolbachia per cell robust z, rep 2": -1.64, "Wolbachia per cell robust z, rep 3": -0.447, "activity call": "active"}
{"gene": "CG42613", "amplicon": "DRSC26862", "Wolbachia per cell robust z, rep 1": -0.127, "Wolbachia per cell robust z, rep 2": -1.9, "Wolbachia per cell robust z, rep 3": -0.0262, "activity call": "inactive"}
{"gene": "Pp1-Y1", "amplicon": "DRSC38778", "Wolbachia per cell robust z, rep 1": 0.643, "Wolbachia per cell robust z, rep 2": 0.353, "Wolbachia per cell robust z, rep 3": 1.13, "activity call": "inactive"}
{"gene": "Pp1-Y1", "amplicon": "DRSC40659", "Wolbachia per cell robust z, rep 1": 1.11, "Wolbachia per cell robust z, rep 2": 1.39, "Wolbachia per cell robust z, rep 3": -0.353, "activity call": "inactive"}
{"gene": "pck", "amplicon": "DRSC18565", "Wolbachia per cell robust z, rep 1": 0.806, "Wolbachia per cell robust z, rep 2": 0.799, "Wolbachia per cell robust z, rep 3": -0.444, "activity call": "inactive"}
{"gene": "CG45105", "amplicon": "DRSC15833", "Wolbachia per cell robust z, rep 1": 2.22, "Wolbachia per cell robust z, rep 2": 3.63, "Wolbachia per cell robust z, rep 3": 4.1, "activity call": "active"}
{"gene": "CG45105", "amplicon": "DRSC25976", "Wolbachia per cell robust z, rep 1": -0.755, "Wolbachia per cell robust z, rep 2": 0.482, "Wolbachia per cell robust z, rep 3": -1.68, "activity call": "inactive"}
{"gene": "CG45105", "amplicon": "DRSC38618", "Wolbachia per cell robust z, rep 1": 0.465, "Wolbachia per cell robust z, rep 2": -5.28, "Wolbachia per cell robust z, rep 3": 1.55, "activity call": "inactive"}
{"gene": "CG32812", "amplicon": "DRSC18478", "Wolbachia per cell robust z, rep 1": 0.479, "Wolbachia per cell robust z, rep 2": 0.4, "Wolbachia per cell robust z, rep 3": 0.199, "activity call": "inactive"}
{"gene": "CG9098", "amplicon": "DRSC03136", "Wolbachia per cell robust z, rep 1": 0.476, "Wolbachia per cell robust z, rep 2": 0.208, "Wolbachia per cell robust z, rep 3": 0.994, "activity call": "inactive"}
{"gene": "CG9098", "amplicon": "DRSC22501", "Wolbachia per cell robust z, rep 1": -3.84, "Wolbachia per cell robust z, rep 2": 1.52, "Wolbachia per cell robust z, rep 3": 0.645, "activity call": "inactive"}
{"gene": "CG9098", "amplicon": "DRSC28828", "Wolbachia per cell robust z, rep 1": 0.859, "Wolbachia per cell robust z, rep 2": 1.38, "Wolbachia per cell robust z, rep 3": 0.512, "activity call": "inactive"}
{"gene": "Toll-7", "amplicon": "DRSC07563", "Wolbachia per cell robust z, rep 1": 0.526, "Wolbachia per cell robust z, rep 2": 0.172, "Wolbachia per cell robust z, rep 3": 1.21, "activity call": "inactive"}
{"gene": "Toll-7", "amplicon": "DRSC29640", "Wolbachia per cell robust z, rep 1": 0.7, "Wolbachia per cell robust z, rep 2": 0.313, "Wolbachia per cell robust z, rep 3": 1.17, "activity call": "inactive"}
{"gene": "Obp50c + Obp50b", "amplicon": "DRSC05482", "Wolbachia per cell robust z, rep 1": -9.81, "Wolbachia per cell robust z, rep 2": 0.222, "Wolbachia per cell robust z, rep 3": 1.05, "activity call": "inactive"}
{"gene": "x16", "amplicon": "DRSC00960", "Wolbachia per cell robust z, rep 1": 1.04, "Wolbachia per cell robust z, rep 2": 0.915, "Wolbachia per cell robust z, rep 3": 0.203, "activity call": "inactive"}
{"gene": "x16", "amplicon": "DRSC03638", "Wolbachia per cell robust z, rep 1": 0.721, "Wolbachia per cell robust z, rep 2": -6.5, "Wolbachia per cell robust z, rep 3": -0.0369, "activity call": "inactive"}
{"gene": "x16", "amplicon": "DRSC23865", "Wolbachia per cell robust z, rep 1": 0.302, "Wolbachia per cell robust z, rep 2": 0.345, "Wolbachia per cell robust z, rep 3": -0.144, "activity call": "inactive"}
{"gene": "eEF1alpha1", "amplicon": "DRSC07421", "Wolbachia per cell robust z, rep 1": 0.537, "Wolbachia per cell robust z, rep 2": 1.25, "Wolbachia per cell robust z, rep 3": -1.94, "activity call": "inactive"}
{"gene": "eEF1alpha1", "amplicon": "DRSC25133", "Wolbachia per cell robust z, rep 1": -0.0547, "Wolbachia per cell robust z, rep 2": 2.13, "Wolbachia per cell robust z, rep 3": 2.6, "activity call": "active"}
